Measured values from several laboratories, pooled; numbers as filed in NIAID ChemDB.

All rows: growth or infection tests; species: Staphylococcus aureus; read-out: MIC

Blank or dashed fields: not listed here. Lines come from different laboratories, so protocols vary.

structure | strain or isolate | result
CO[C@H]1/C=C/O[C@@]2(C)Oc3c(C)c(O)c4c(O)c(c5c(c4c3C2=O)NC2(CCN(CC(C)C)CC2)N=5)=NC(=O)/C(C)=C\C=C\[C@H](C)[C@H](O)[C@@H](C)[C@@H](O)[C@@H](C)[C@H](OC(C)=O)[C@@H]1C | 209P | 0.016 µg/mL
Cc1c(N2Cc3cccnc3C2)c(F)cn2c(=O)c(C(=O)O)cc(C3CC3)c12 | 1775 (ciprofloxacin-resistant) | 0.2 µg/mL
CC(C)c1cc2c(cc1OCc1ccccc1)[C@@]1(C)CCCC(C)(C)[C@@H]1CC2 | - | >32 µg/mL
Cc1c(N2CC[C@H](N)C2)c(F)cn2c(=O)c(C(=O)NCC(=O)O)cc(C3CC3)c12 | NCTC10649 | 50 µg/mL
CC(=O)OC[C@H]1O[C@@H](Oc2cc3c(cc2C(C)C)CC[C@H]2C(C)(C)CCC[C@]32C)[C@H](OC(C)=O)[C@@H](OC(C)=O)[C@@H]1OC(C)=O | - | >32 µg/mL
CC(=O)CN1CCN(c2c(Cl)cc3c(=O)c(C(=O)O)cn(C4CC4)c3c2F)CC1 | 1756 | 0.25 µg/mL
Cc1c(N2CCC3(CCC[C@@H]3N)C2)c(F)cn2c(=O)c(C(=O)O)cc(C3CC3)c12 | NCTC10649 | 0.02 µg/mL
CC1CN(c2c(F)cc3c(=O)c(C(=O)O)cn(C4CC4)c3c2Cl)CCN1 | 422 | 0.06 µg/mL
CC(C)c1c(O)ccc2c1CCC1C(C)(C)CCC[C@]21C | Methicillin-resistant | 2 µg/mL
NC(=O)c1cc(F)ccc1SSc1ccc(F)cc1C(N)=O | ATCC 6538 | 7.5 µg/mL
O=C(O)c1cn(C2CC2)c2c(F)c(N3CCNC(C4CCCCC4)C3)c(Cl)cc2c1=O | 1756 | 0.06 µg/mL
CC(C)c1c(O)ccc2c1C=C[C@H]1C(C)(C)CCC[C@]21CO | Methicillin-resistant | 32 µg/mL
O=c1[nH]sc2c(C(F)(F)F)cccc12 | ATCC 6538 | 30 µg/mL
CC(C)c1c(O)ccc2c1[C@H](O)C[C@H]1C(C)(C)CCC[C@]21C | Methicillin-resistant | 32 µg/mL
O=c1[nH]sc2cccc(C(F)(F)F)c12 | ATCC 6538 | 30 µg/mL
CN1CCN(c2c(F)cc3c(=O)c(C(=O)O)cn(C4CC4)c3c2Cl)CC1 | 1756 | 0.06 µg/mL
CO[C@H]1/C=C/O[C@@]2(C)Oc3c(C)c(O)c4c(O)c(c(/C=N/N5CCN(C)CC5)c(O)c4c3C2=O)NC(=O)/C(C)=C\C=C\[C@H](C)[C@H](O)[C@@H](C)[C@@H](O)[C@@H](C)[C@H](OC(C)=O)[C@@H]1C | Terajima | 0.0078 µg/mL
CC1CN(c2c(Cl)cc3c(=O)c(C(=O)O)cn(C4CC4)c3c2Cl)CCN1 | 133 | 0.125 µg/mL
CC(C)c1c(O)ccc2c1C(=O)C=C1C(C)(C)CCC[C@@]12C | Methicillin-resistant | >32 µg/mL
CCC1CN(c2c(Cl)cc3c(=O)c(C(=O)O)cn(C4CC4)c3c2F)CCN1 | 1756 | 0.25 µg/mL
O=c1[nH]sc2cc(C(F)(F)F)ccc12 | ATCC 6538 | 10 µg/mL
Cc1c(N2CC3=CCCN[C@H]3C2)c(F)cn2c(=O)c(C(=O)O)cc(C3CC3)c12 | 285 | 0.013 µg/mL
CN[C@@H]1[C@H](O[C@H]2[C@H](O[C@H]3[C@H](O)[C@@H](O)[C@H](N=C(N)N)[C@@H](O)[C@@H]3N=C(N)N)O[C@@H](C)[C@]2(O)C=O)O[C@@H](CO)[C@H](O)[C@H]1O | - | 6.25 µg/mL
O=C(O)c1cn(C2CC2)c2c(F)c(N3CCN(CCO)CC3)c(Cl)cc2c1=O | 1756 | 0.5 µg/mL
CC(=O)Nc1cc2c(c(C(C)C)c1OC(C)=O)CC[C@H]1C(C)(C)CCC[C@]21C | - | >32 µg/mL
CC(C)c1c(O)ccc2c1C[C@@H]1OC[C@]3(C)CCC[C@@]2(C)C13 | Methicillin-resistant | >32 µg/mL
CC(C)c1cc2c(cc1OS(=O)(=O)C(F)(F)F)[C@@]1(C)CCCC(C)(C)[C@@H]1CC2 | - | >32 µg/mL
COc1c(Br)cc2c(c1C(C)C)CC[C@H]1C(C)(C)CCC[C@]21C | - | >32 µg/mL
CC1(C)CCC[C@]2(C)c3ccccc3CC[C@@H]12 | - | >32 µg/mL
CCCCn1sc2ccc(F)cc2c1=O | ATCC 6538 | 10 µg/mL
CC(C)c1c(O)ccc2c1C(=O)[C@H](Br)[C@H]1C(C)(C)CCC[C@]21C | Methicillin-resistant | 8 µg/mL
CC(C)c1c(O)c(CO)cc2c1CC[C@H]1C(C)(C)CCC[C@]21C | - | >32 µg/mL
CC(=O)Oc1cc2c(cc1C(C)C)CC[C@H]1C(C)(C)CCC[C@]21C | - | >32 µg/mL
CC(C)c1c(O)c(O)cc2c1CC[C@H]1C(C)(C)CCC[C@]21C | - | 8 µg/mL
CSCC[C@H](N)C1CCN(c2c(F)cn3c(=O)c(C(=O)O)cc(C4CC4)c3c2C)C1 | 1775 (ciprofloxacin-resistant) | 0.1 µg/mL
CC(=O)OC[C@H]1O[C@@H](Oc2cc3c(cc2C(C)C)CC[C@H]2C(C)(C)CCC[C@]32C)[C@H](OC(C)=O)[C@@H](OC(C)=O)[C@H]1OC(C)=O | - | >32 µg/mL